In this series the test system is P. aeruginosa biofilms. Put plainly: Uptake of photo-catalyst by CDFF biofilms measured by colorimetric spectroscopy (SpectroEye). The conditions noted are these: 10 minutes, listed as RB. Type of series: cell-based.

Several values for one entry are separate records, joined by “and”; a condition that tells them apart may be missing. Identical values can stand only once.

As for `O=C1OC2(c3cc(I)c(O)c(I)c3Oc3c2cc(I)c(O)c3I)c2c(Cl)c(Cl)c(Cl)c(Cl)c21` [Rose Bengal, 4,5,6,7-Tetrachloro-3′,6′-dihydroxy-2′,4′,5′,7′-tetriodo-3H-spiro[isobenzofuran-1,9′-xanthen]-3-one], where the note is “biofilm immersed in 125 μM RB in saline, from standard curve, one value per biofilm sample”, the “RB contained in biofilm” value is 136.48 µM and 120.85 µM and 111.10 µM and 134.99 µM and 123.95 µM and 120.17 µM. Further, where the note is “mean of 6 biofilm samples, 125 μM RB in saline”, the Mean uptake is 125 µM and 124.6 ± 9.6 µM.

These data come from patent US9669001B2, “Antimicrobial composition” (CONVATEC TECHNOLOGIES INC., priority 2008, dated 2017).
